Measured values reported in US20110300168A1, “COMPOSITIONS AND METHODS FOR INDUCING AN IMMUNE RESPONSE AGAINST INFLUENZA ANTIGENS” (THE JOHNS HOPKINS UNIVERSITY, priority 2010, published 2011).

Tests used:
Assay type in all cases: cell-based, human
[1] = tested on: CD8+ T cells
[2] = tested on: CD8+ T cells; remark: listed apart in the source
[3] = tested on: CD8+ T cells; conditions: control donors aged 21-42, wk 0 directly ex vivo, peptide pulsed T2 cells 1:1; positive if SFC greater than 5 per 100000 CD8+ T cells, p<0.05

Sequence: FMYSDFHFI (listed as Influenza virus) [PA46-54, subdominant influenza peptide, pool 2]
- CD8+ T cells specific for the epitope by A2-Ig dimer staining [1]: 65%
- control donors in whom the epitope elicited a response ([2]; 12 control donors, aAPC assay, ICS): majority of the donors
- CD8+ T cells specific by IFNγ expression (ICS) ([2]; Donor C1, after 3 weekly aAPC stimulations, restimulated with peptide pulsed T2 cells 1:1): 8%
- geriatric donors with CD8+ T cells responding to the epitope ([2]; nine geriatric donors aged 65 and above, IFNγ ICS after 3 weeks of aAPC stimulation): Donors E2, E3, E4, and E8 responded
- number of donors who responded by IFNγ ELISpot [3]: 2
